Measured values published in the supplement of paper PMC8497498.

Key:
Settings in all cases: P. vivax isolate: Pv728; hepatocyte lot: BGW; assay mode: Radical Cure, 8-day (treatment from day 5 post-infection)
[1] = tested on: primary human hepatocytes; experiment: CC20 hepatic nuclei (20% reduction); higher = less toxic
Method: (§1)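 Dose-response of P. vivax liver stages in primary human hepatocytes, with 8 points (10 uM-[…], v1) or 12 points in duplicate (50 uM-280 pM, v2). Read-out is high-content imaging of schizont net growth area, hypnozoite quantity and hepatic nuclei. EC50 and CC20 (20% nuclei loss) were fitted in CDD Vault from the highest-quality independent experiment; toxic-dose bell-shaped points were masked. '>' marks the highest concentration with less than 50% activity, and ND means a non-sigmoidal curve.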

[2] = tested on: Plasmodium vivax liver stage (primary human hepatocyte culture)
Method: as §1

[3] = tested on: Plasmodium vivax liver stage (primary human hepatocyte culture); experiment: maximum inhibition of schizont net growth area; higher = more active
Method: as §1

With c1ccc2c(NCCCCCCNc3c4c(nc5ccccc35)CCCC4)c3c(nc2c1)CCCC3 the CC20 hepatic nuclei [1] was 42.1 µM, the EC50 hypnozoite quantity [2] was over 50 µM and the “EC50 schizont net growth area” value [2] was over 16.7 µM. The maximum inhibition [3] was 102%.
